Data taken from ChEMBL document CHEMBL3988442, “University of Dundee, Small-Polar-MMV Screening Library” (2021).

Each number is a percent effect as filed. How 0% and 100% were set is not recorded. Most values in the screen are low, and negative values occur. This is part of a subset picked to be rich in strong results. Two or more numbers in one place are separate tests of the same structure; such repeats can differ widely.

Mtb glucose medium: 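Whole-cell growth test on Mycobacterium tuberculosis, read after 3 days in glucose-containing 7H9 medium; the read-out is not stated. Tested at 50 µM. The record gives no direction; compounds that gave an IC50 in retests scored well above the rest, so higher reads as more growth inhibition. Of about 69,000 compounds tested this way, about 760 (1.1%) reached 50% or more in at least one test.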
Mtb cholesterol medium: 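Phenotypic screen: M. tuberculosis growth, cholesterol and DPPC medium, 4 days; the read-out is not stated. Concentration: 50 µM. The record gives no direction; compounds that gave an IC50 in retests scored well above the rest, so higher reads as more growth inhibition. Of about 69,000 compounds tested this way, about 370 (0.54%) reached 50% or more in at least one test.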

CC1(C)OC(=O)N(CCCC(=O)c2ccc(F)cc2)C1=O gave Mtb glucose medium: 23.88%. Cn1cc(CN(Cc2ccccn2)Cc2ccccc2Cl)cn1 gave Mtb glucose medium: 15.85%. CC1CCCCN1C(=O)c1coc(COc2cccc3cnccc23)n1 (configuration not stated) read Mtb glucose medium: 53.99% & 52.8%; Mtb cholesterol medium: 42.34% & 56%. Result for CN1C(=O)C(c2ccccc2)CC12CCN(CCOCCO)CC2 (configuration not stated) was Mtb glucose medium: -24.54%. For Cc1nn(CC(O)CN2CCc3ccccc3C2)c(=O)c2ccccc12 (configuration not stated) the result was Mtb glucose medium: 16.03%; Mtb cholesterol medium: 5.942%. CCCc1nn(Cc2ccc(Br)s2)c(=O)o1 read Mtb glucose medium: 56.33%; Mtb cholesterol medium: 73.39%. For CC1C(=O)NCCN1CCOc1ccc(C#N)cc1 (configuration not stated) the result was Mtb glucose medium: 5.915%; Mtb cholesterol medium: 5.933%. For Cc1ncsc1C(=O)NCC1SCCc2ccccc21 (configuration not stated) the result was Mtb glucose medium: -19.16%.

For Cc1cnc(C)c(N2CCN(Cc3ccc(C)c(C)c3)CC2)n1 the result was Mtb cholesterol medium: 0.09384%. Result for CCSCCNc1nc2c(s1)c(C)nn2C was Mtb glucose medium: 20.94% & 15.44%. With Cc1c(CNCc2nn(-c3ccccc3)c3c2CCC3)cc(C#N)n1C the screen gave Mtb glucose medium: 35.28%. CC1(C)Oc2ccc(NC(=O)c3ccc(=O)[nH]n3)cc2O1 gave Mtb glucose medium: 28.43% & 5.931%; Mtb cholesterol medium: 1.414%. For [H][C@]12CC[C@]([H])(CN(S(=O)(=O)c3cccnc3)C1)N(Cc1ccccn1)C2 the result was Mtb glucose medium: -2.536%. Cc1cc2n(n1)CC(CNC1CCN(C3CC3)CC1)CN2 (configuration not stated) read Mtb glucose medium: 28.64% & 65.82%. Cc1ccc(-c2noc(C(C)NS(C)(=O)=O)n2)cc1 (configuration not stated) gave Mtb glucose medium: -32.8%; Mtb cholesterol medium: -31.4%. Result for Cc1c[nH]nc1C1CCCN(C(=O)c2c(C)noc2C)C1 (configuration not stated) was Mtb glucose medium: 19.3%.

For CCSc1nsc(NC(=O)COc2ccc3c(c2)OCO3)n1 the result was Mtb glucose medium: 59.61% & 15.4%. NC(=O)C1CCN(C(=O)CCn2ccc3ccc(Br)cc32)CC1 gave Mtb cholesterol medium: 7.931%. Result for Cc1ncsc1C(=O)NCc1cccs1 was Mtb glucose medium: 10.92%; Mtb cholesterol medium: -4.726%. For CC1(c2ccccc2)CCCN(Cc2cncn2C2CC2)C1 (configuration not stated) the result was Mtb glucose medium: 30.22%; Mtb cholesterol medium: 29.33%. Cc1ncsc1C(=O)NCCc1cccs1 gave Mtb glucose medium: -5.868%. Cc1ccc(CN(CCCn2ccnc2)Cc2ccccc2O)s1.O=C(O)CC(O)(CC(=O)O)C(=O)O read Mtb glucose medium: 2.427%; Mtb cholesterol medium: -27.39%. Cc1ccc(C(=O)NCCNC(=O)c2cncnc2C(C)C)cc1F gave Mtb glucose medium: -10.79%. With CCCc1cncnc1N1CCC(NCc2ccc(O)cc2)CC1 the screen gave Mtb glucose medium: 2.423% & -3.44%; Mtb cholesterol medium: -17.39%.

With Cc1cnn(CCNCc2nccn2CC(F)(F)F)c1 the screen gave Mtb glucose medium: 11.92%; Mtb cholesterol medium: 20.12%. For CC(C)N1CC(C(=O)N2CCC(Oc3ccccc3Cl)CC2)CC1=O (configuration not stated) the result was Mtb glucose medium: 5.216%; Mtb cholesterol medium: 0.08581% & -8.648%. For CN(CC1(C)COC1)C(=O)c1cc(-c2cnn(C)c2)nc2ccccc12 the result was Mtb cholesterol medium: 18.49% & 74.68%. For Cc1nc(-c2cccc(N3CCC(N[C@@H]4CCOC4)CC3)c2)cs1 the result was Mtb glucose medium: 24.84%; Mtb cholesterol medium: 1.302%. Result for CN1CCC(CNC(=O)c2cccc(C(F)(F)F)c2)c2ccccc21 (configuration not stated) was Mtb glucose medium: 51.37% & 47.98%. COc1cccc(C2CC(=O)Nc3nc(N4CCOCC4)sc32)c1OC (configuration not stated) gave Mtb glucose medium: 25.21% & 40.28%. Result for CN(Cc1cccs1)C(=O)c1ccc(=O)n(C)c1 was Mtb glucose medium: -6.188%; Mtb cholesterol medium: 8.769%. O=C(Nc1cccnc1N1CCSCC1)c1cc2c(s1)CCCCC2 read Mtb glucose medium: -11.48%; Mtb cholesterol medium: 1.704%.

With COc1ccc2c(c1)CN(c1cc(N3CCCC3CO)ncn1)CC2 (configuration not stated) the screen gave Mtb glucose medium: 55.04%. For Cc1noc(C(C)Nc2ccc3oc(C)nc3c2)n1 (configuration not stated) the result was Mtb cholesterol medium: -18.26%. O=S(=O)(NCCNc1ccc(-n2cccc2)nn1)c1cccs1 read Mtb glucose medium: 63.08% & 64.16%; Mtb cholesterol medium: 68.32%. With COc1ccc(CNC(=O)c2ccc(Br)cn2)cc1 the screen gave Mtb glucose medium: 40.77%; Mtb cholesterol medium: 45.82%.

The first 3 entries again:

{"structure": "CC1(C)OC(=O)N(CCCC(=O)c2ccc(F)cc2)C1=O", "Mtb glucose medium": 23.88}
{"structure": "Cn1cc(CN(Cc2ccccn2)Cc2ccccc2Cl)cn1", "Mtb glucose medium": 15.85}
{"structure": "CC1CCCCN1C(=O)c1coc(COc2cccc3cnccc23)n1", "stereo": "configuration not stated", "Mtb glucose medium": "53.99 & 52.8", "Mtb cholesterol medium": "42.34 & 56"}